Key:
[1] = biological target: recombinant HA, subtype H7 (A/Netherlands/219/03 (H7N7)) (influenza A virus A/Netherlands/219/03 …); experiment: ELISA, coated HA, IgG 5 µg/ml
[2] = biological target: recombinant HA, subtype H9 (A/Hong Kong/1073/99 (H9N2)) (influenza A virus A/Hong Kong/1073/99 …); experiment: ELISA, coated HA, IgG 5 µg/ml

Row | Binder | OD 492 nm [1] [OD 492 nm] | OD 492 nm [2] [OD 492 nm]
1 | CR6334 (antibody, V domains shown) VH: EVQLVETGAEVKKPGSSVKVPCKSSGSPFRSNAVSWVRQAPGQGLEWVGGILGVFGSPSYAQKFQGRVTITADESTNTVHMELRGLRSEDTAVYYCARGPTYYYSYMDVWGKGTTVTVSS VL: SYVLTQPPSESVAPGQTARITCGGNNIGRNSVHWYQQKPGQAPVLVVYDDSDRPSGIPERFSGSKSGNTATLIISRVEVGDEADYYCQVWHSSSDHYVFGTGTKVTVLG | 0.15 | 1.82
2 | CR6343 (antibody, V domains shown) VH: QVQLVQSGAEVKKPGSSVKVSCKASGVTFSYYAMSWVRQAPGQGLEWMGGISPMFGTTTYAQKFQGRVTITADDSTSTAYMEVRSLRSEDTAVYYCARSSNYYDSVYDYWGQGTLVTVSS VL: QSVVTQPPSESVAPGQTARITCGGHNIGSNSVHWYQQKPGQAPVLVVYDNSDRPSGIPERFSGSNSGNTATLTISRVEAGDEADYYCQVWGSSSDHYVFGTGTKVTVLG | 0.15 | 1.88
3 | CR6342 (antibody, V domains shown) VH: QVQLVQSGAEVKKPGSSVKVSCKASGGFFSSYAISWVRQAPGQGLEWMGGVIPIFRTANYAQNFQGRVTITADEFTSYMELSSLRSDDTAVYYCARLNYHDSGTYYNAPRGWFDPWGQGTLVTVSS VL: DIQMTQSPDSLAVSLGEKATINCKSSQSILNSSNNKNYLAWYQQKPGQPPKLLIYWASTRESGVPDRFSGSGSGTDFTLTISSLQAEDVAVYYCQQYYSSPPTFGQGTKVEIKR | 0.17 | 2.13
4 | CR6262 (antibody, V domains shown) VH: QVQLQQSGAEVKKPGSSVKVSCKVSGVIFSGSAISWVRQAPGQGLEWMGGISPLFGTTNYAQKFQGRVTITADQSTNTTYMEVNSLRYEDTAVYFCARGPKYYSEYMDVWGKGTTVTVSS VL: DIQMTQSPSSLSASVGDRVTITCRASQGISSYLAWYQQKPGKVPTLLIYDASTLRSGVPSRFSGSGSATDFTLTISSLQPEDVATYYCQRYNSAPPITFGQGTRLEIKR | 0.17 | 1.93
5 | CR6257 (antibody, V domains shown) VH: QVQLVQSGAEVKKPGSSVKVSCKASGGPFRSYAISWVRQAPGQGPEWMGGIIPIFGTTKYAPKFQGRVTITADDFAGTVYMELSSLRSEDTAMYYCAKHMGYQVRETMDVWGKGTTVTVSS VL: QSALTQPAAVSGSPGQSITISCTGTSSDVGGYNYVSWYQQHPGKAPKLMIYEVSNRPSGVSNRFSGSKSGNTASLTISGLQAEDEADYYCSSYTSSSTYVFGTGTKVTVLG | 0.16 | 2.06
6 | CR6325 (antibody, V domains shown) VH: EVQLVESGAEVKKPGSSVKVSCKASGGTFSFYSMSWVRQAPGQGLEWMGGIIPMFGTTNYAQKFQGRVTITAVESTSTAYMEVSSLRSEDTAVYYCARGDKGIYYYYMDVWGKGTTVTVSS VL: QSALTQPASVSGSPGQSITISCTGTSSDVGGYNYVSWYQQHPGKAPKLMIYEVSNRPSGVSNRFSGSKSGNTASLTISGLQAEDEADYYCSSYTSSSTLVFGTGTKVTVLG | 0.17 | 2.04
7 | CR6272 (antibody, V domains shown) VH: QMQLVQSGAEVKKPGSSVKVSCKASGGTFSSYAITWVRQAPGQGLEWMGGIIGMFGSTNYAQNFQGRVTITADESTSTAYMELSSLRSEDTAVYYCARSTGYYPAYLHHWGQGTLVTVSS VL: QSALTQPRSVSGSPGQSVTISCTGTSSDVGGYNYVSWYQQHPGKAPKLMIYDVSKRPSGVPDRFSGSKSGNTASLTISGLQAEDEADYYCSSYTSSSTHVFGTGTKVTVLG | 0.15 | 0.96
8 | CR6332 (antibody, V domains shown) VH: QVQLVQSGAEVKKPGSSVKVSCKASGGPFRNFAINWVRQAPGQGLEWMGGIIAVFGTTKYAHKFQGRVTITADDSTNTAYMELGSLKSEDTAVYYCARGPHYYSSYMDVWGEGTTVTVSS VL: DIQLTQSPSSLSASVGDRVTITCRASQGISTYLAWYQQKPGKVPKLLIYAASTLQSGVPSRFSGSGSGTDFTLTISSLQPEDVATYYCQKYNSAPSFGPGTKVDIKR | 0.26 | 2.11
9 | CR6344 (antibody, V domains shown) VH: QVQLVQSGAEVKKPGSSVRVSCKASGSIFRNYAMSWVRQAPGQGLEWMGGIIAIFGTPKYAQKFQGRVTITADESTSTVYMELSGLRSEDTAMYYCARIPHYNFGSGSYFDYWGQGTLVTVSS VL: TVLTQPPSVSGAPGQRVTISCTGSSSNIGAGYDVHWYQQLPGTAPKLLIYGNSNRPSGVPDRFSGSKSGTSATLGITGLQTGDEADYYCGTWDSSLSAYVFGTGTKVTVLG | 0.18 | 2.15
10 | CR6323 (antibody, V domains shown) VH: EVQLVESGAEVKKPGSSVKVSCKASGGTFSSYGISWVRQAPGQGLEWMGDIIGMFGSTNYAQNFQGRLTITADESTSTAYMELSSLRSEDTAVYYCARSSGYYPAYLPHWGQGTLVTVSS VL: not shown | 0.15 | 2.27
11 | CR6268 (antibody, V domains shown) VH: QVQLVQSGAEVKKPGSSVKVSCKASGGTFSSYAISWVRQAPGQGLEWMGGIMGMFGTTNYAQKFQGRVTITADEFTSAAYMELRSLRSEDTAVYYCARSSGYYPEYFQDWGQGTLVTVSS VL: QSVLTQPPSESVSPGQTASVTCSGHKLGDKYVSWYQQKPGQSPVLLIYQDNRRPSGIPERFIGSNSGNTATLTISGTQALDEADYYCQAWDSSTAVFGGGTKLTVLG | 0.15 | 2.16
12 | CR6336 (antibody, V domains shown) VH: QMQLVQSGAEVKKPGSSVKVSCKASGGTFSSYAISWVRQAPGQGLEWMGGIFGMFGTANYAQKFQGRVTITADEFTSAAYMELSSLGSEDTAMYYCARSSGYYPQYFQDWGQGTLVTVSS VL: EIVMTQSPGTLSLSPGQRATLSCRASQSVSSSYLAWYQQKPGQAPRLLMYGASSRATGIPDRFSGSGSGTDFTLTISRLEPEDFAVYYCQQYGSSSLTFGGGTKLEIKR | 0.18 | 2.02
13 | CR6307 (antibody, V domains shown) VH: QVQLVQSGGGLVKPGGSLRLSCAASGFTFSSYSMNWVRQAPGKGLEWVSSISSSSSYIYYVDSVKGRFTISRDNAKNSLYLQMNSLRAEDTAVYYCARGGGSYGAYEGFDYWGQGTLVTVSS VL: EIVLTQSPGTLSLSPGERATLSCRASQRVSSYLAWYQQKPGQAPRLLIYGASTRAAGIPDRFSGSGSGTDFTLTISRLEPEDSAVYYCQQYGRTPLTFGGGTKVEIKR | 0.22 | 0.17
14 | CR6328 (antibody, V domains shown) VH: EVQLVESGAEVKKPGSSVKVSCKASGHIFSGYAISWVRQAPGQGLEWMGGIIPIFGTTNYAQKFQGRVTITADQSTSTAYMDLSNLRSEDTAVYYCARVKDGYCTLTSCPVGWYFDLWGRGTLVTVSS VL: not shown | 0.16 | 2.38

From patent publication US20090311265A1 (CRUCELL HOLLAND B V, published 2009)
